Earlier results in patent US11819508B2 (priority 2020, dated 2023).

Test system: Covid-19
Conditions: inhaled interferon

B1: IFN β-1a: cytokine in the interferon family, inhaled (protein, UniProt P01574 22-187, looked up)
Interferon beta: MSYNLLGFLQRSSNFQCQKLLWQLNGRLEYCLKDRMNFDIPEEIKQLQQFQKEDAALTIYEMLQNIFAIFRQDSSSTGWNETIVENLLANVYHQINHLKTVLEEKLEKEDFTRGKLMSSLHLKRYYGRILHYLKAKEYSHCAWTIVRVEILRNFYFINRLTGYLRN
recovery of subjects hospitalized with Covid-19 (speed ambulation, decrease risk of developing severe disease, reduce breathlessness): improve recovery
